The values that follow come from US20070196288A1, “Method of treating periodontitis and of reducing dentinal sensitivity” (Research Foundation of the State University of New York, priority 2006, published 2007).

A short description of this data set: Dentine disc application with SEM/EDX examination. More on the design: species or system human.

Entries after “also recorded” stand apart in the source; their conditions may differ.

Turning to `O.O.O.O.O.O.O=[N+]([O-])[O-].O=[N+]([O-])[O-].O=[N+]([O-])[O-].[Gd+3]` [gadolinium nitrate, gadolinium nitrate hexahydrate, (Gd(NO3)3.6H2O)], the “tubule penetration depth compared with potassium oxalate” value (alcohol used as a solvent) is “tubule penetration depths greater than potassium oxalate”. Besides, the “deposition on dentine surface and within / occlusion of dentinal tubules (SEM/EDX)” value (etched human dentine discs, 5-10 minutes application, rinsed, 1.5% to 6%) is “deposition of gadolinium on the surface of the dentine and with in the tubule; also recorded: promising results of dentinal occlusion; also recorded: deposits of gadolinium on dentinal surface and within tubule”.
